Results: patent EP2033655B1 (priority 2007, dated 2009)

Amino acid sequences for entries named in this document (tags omitted). Residues count along the entry.
UniProt P19338, 648-710 limits assumed: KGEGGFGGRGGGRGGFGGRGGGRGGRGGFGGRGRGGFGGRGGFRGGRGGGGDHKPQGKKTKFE
UniProt P19338, whole entry: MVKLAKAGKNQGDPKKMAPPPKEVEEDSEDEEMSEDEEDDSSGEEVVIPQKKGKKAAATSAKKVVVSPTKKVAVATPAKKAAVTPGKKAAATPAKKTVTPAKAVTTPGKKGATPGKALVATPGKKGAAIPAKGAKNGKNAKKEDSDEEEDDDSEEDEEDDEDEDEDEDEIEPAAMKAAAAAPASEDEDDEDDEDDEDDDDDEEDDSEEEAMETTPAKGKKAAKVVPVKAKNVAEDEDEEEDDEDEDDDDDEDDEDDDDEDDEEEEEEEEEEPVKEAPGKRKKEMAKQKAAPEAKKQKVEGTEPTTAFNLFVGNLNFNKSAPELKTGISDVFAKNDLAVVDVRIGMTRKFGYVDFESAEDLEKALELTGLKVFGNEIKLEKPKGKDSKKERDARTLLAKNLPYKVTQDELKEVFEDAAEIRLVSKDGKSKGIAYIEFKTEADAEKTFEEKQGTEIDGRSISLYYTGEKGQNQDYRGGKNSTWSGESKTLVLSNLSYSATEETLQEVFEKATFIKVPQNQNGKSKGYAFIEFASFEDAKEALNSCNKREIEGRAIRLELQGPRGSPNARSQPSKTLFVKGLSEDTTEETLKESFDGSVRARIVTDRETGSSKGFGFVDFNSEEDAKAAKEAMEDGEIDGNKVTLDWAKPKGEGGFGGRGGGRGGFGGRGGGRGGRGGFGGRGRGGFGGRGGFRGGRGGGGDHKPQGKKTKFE

Experiments:
[1] = tested on: F. tularensis LVS; format: cell-based, Francisella tularensis
[2] = tested on: F. tularensis LVS; format: cell-based, Francisella tularensis; conditions: 23 h
[3] = tested on: nucleolin; format: binding, human
[4] = biological target: T1, EF-Tu / RGG domain of nucleolin (Homo sapiens, UniProt P19338); format: binding, F. tularensis
T1 construct: made in house; host or cells: EF-Tu: E. coli BL21 DE3 (pET28a+); p63: chemical synthesis

[5] = biological target: T2, cell-surface expressed nucleolin (Homo sapiens, UniProt P19338); assay: cell-based; conditions: HeLaP4, read-out: inhibitory activity
T2 construct: endogenous in cells; host or cells: HeLa P4 cells

## CCCC[C@H](NC(=O)[C@H](CCCCNC(=O)[C@H](CCCNC(=N)N)NC(=O)[C@@H]1CCCN1C[C@@H](N)CCCCN)NC(=O)[C@H](CCC(=O)O)NC(=O)[C@H](CCCCNC(=O)[C@H](CCCNC(=N)N)NC(=O)[C@@H]1CCCN1C[C@@H](N)CCCCN)NC(=O)[C@@H]1CCCN1C(=O)CNC(=O)[C@H](CCCCNC(=O)[C@H](CCCNC(=N)N)NC(=O)[C@@H]1CCCN1C[C@@H](N)CCCCN)NC(=O)[C@H](CCCCN)NC(=O)[C@H](CCCCNC(=O)[C@H](CCCNC(=N)N)NC(=O)[C@@H]1CCCN1C[C@@H](N)CCCCN)NC(=O)[C@H](CCCNC(=N)N)NC(=O)[C@@H]1CCCN1C[C@@H](N)CCCCN)C(N)=O [HB-19, 5[Lys (CH2N)Pro-Arg]-template-assembled synthetic peptide]
[1]
  effect on LVS-GFP binding: no effect
  inhibition of the binding of LVS-GFP: 70%
[2]
  decrease of infection: 80%
[3]
  binding of HB-19 to RGG domain alone: sufficient for binding
[4]
  effect on binding of the biotin-labeled p63 peptide to EF-Tu: markedly inhibited

## CC(=O)N[C@@H](CCCCNC(=O)[C@H](CCCNC(=N)N)NC(=O)[C@@H]1CCCN1C[C@@H](N)CCCCN)C(=O)NC(C)(C)C(=O)NCC(=O)N[C@@H](CCCCNC(=O)[C@H](CCCNC(=N)N)NC(=O)[C@@H]1CCCN1C[C@@H](N)CCCCN)C(=O)NC(C)(C)C(=O)NCC(=O)N[C@@H](CCCCNC(=O)[C@H](CCCNC(=N)N)NC(=O)[C@@H]1CCCN1C[C@@H](N)CCCCN)C(=O)NC(C)(C)C(=O)NCC(=O)N[C@@H](CCCCNC(=O)[C@H](CCCNC(=N)N)NC(=O)[C@@H]1CCCN1C[C@@H](N)CCCCN)C(=O)NC(C)(C)C(=O)NCC(=O)N[C@@H](CCCCNC(=O)[C@H](CCCNC(=N)N)NC(=O)[C@@H]1CCCN1C[C@@H](N)CCCCN)C(=O)NC(C)(C)C(=O)NCC(=O)N[C@@H](CCCCNC(=O)[C@H](CCCNC(=N)N)NC(=O)[C@@H]1CCCN1C[C@@H](N)CCCCN)C(=O)NC(C)(C)C(=O)NCC(N)=O [Nucant 6]
[5]
  inhibition at 0.8 µM: > 95%
